Experimental data from US20250387478A1.

Biological target: CD79b (B-cell antigen receptor complex-associated protein β-chain) (human) (UniProt P40259)
Assay: cell-based or functional assay

For “ATB 780, CD79b (polatuzumab) [HC-G4S-Ricin × LC]”, the IC50, cell viability assay (Cell Titer Glo) on CD79b+ cells was 1.58 nM.
